Pooled drug test results. Numbers come from NIAID ChemDB, via PubChem.

Common to all: tests in culture; organism: Mycobacterium avium; endpoint: EC50

Conditions beyond the fields shown may differ between rows. Blank or dashed fields: not listed here. ECn is the concentration giving n% inhibition of infection, replication or growth.

| SMILES | strain | result |
|---|---|---|
| CC[C@H]1OC(=O)[C@H](C)[C@@H](O[C@H]2C[C@@](C)(OC)[C@@H](O)[C@H](C)O2)[C@H](C)[C@@H](O[C@@H]2O[C@H](C)C[C@H](N(C)C)[C@H]2O)[C@](C)(O)C[C@@H](C)/C(=N\OCOCCOC)[C@H](C)[C@@H](O)[C@]1(C)O | 15 isolates (HIV+) | 7.5 µg/mL |
| O=c1[nH]c(=O)n([C@H]2O[C@@H](CO)[C@H](O)[C@@H]2O)cc1I | ATCC 25291 | >50 µg/mL |
| O=C1NC(=Nc2ccc(Cl)cc2Cl)N/C1=C\c1ccc(Cl)cc1Cl |  | >12.5 µg/mL |
| CC(=O)/C(N=Nc1ccc(C(=O)N/N=C/c2ccc([N+](=O)[O-])o2)cc1)=C(/O)c1ccccc1 |  | >12.5 µg/mL |
| O=c1[nH]c(=O)n([C@@H]2O[C@H](CO)[C@@H](O)[C@H]2F)cc1F | ATCC 25291 | >50 µg/mL |
| N#C/C(=C\c1ccccc1)n1nnc2ccccc21 |  | <12.5 µg/mL |
| O=c1[nH]c(=O)n(COCCO)cc1F | ATCC 25291 | >100 µg/mL |
| O=C1NC(Nc2ccc(Cl)cc2)=N/C1=C\c1ccc(Cl)cc1Cl |  | <12.5 µg/mL |
| [N-]=[N+]=NC(CI)c1cn(COCCO)c(=O)[nH]c1=O | ATCC 25291 | 10 µg/mL |
| O=c1[nH]c(=O)n([C@H]2C[C@H](F)[C@@H](CO)O2)cc1F | ATCC 25291 | >50 µg/mL |
| [N-]=[N+]=NC(CI)c1cn(COC(CO)CO)c(=O)[nH]c1=O | ATCC 25291 | >100 µg/mL |
| CC[C@H]1OC(=O)[C@H](C)[C@@H](O[C@H]2C[C@@](C)(OC)[C@@H](O)[C@H](C)O2)[C@H](C)[C@@H](O[C@@H]2O[C@H](C)C[C@H](N(C)C)[C@H]2O)[C@](C)(OC)C[C@@H](C)C(=O)[C@H](C)[C@@H](O)[C@]1(C)O | 15 isolates (HIV+) | 5 µg/mL |
| O=c1[nH]c(=O)n(COCCO)cc1Br | ATCC 25291 | >100 µg/mL |
| O=C1NC(=NCc2ccccc2)N/C1=C\c1ccc(Cl)cc1 |  | >12.5 µg/mL |
| [N-]=[N+]=NC(CBr)c1cn(COC(CO)CO)c(=O)[nH]c1=O | ATCC 25291 | >100 µg/mL |
| CC[C@H]1OC(=O)[C@H](C)[C@@H](O[C@H]2C[C@@](C)(OC)[C@@H](O)[C@H](C)O2)[C@H](C)[C@@H](O[C@@H]2O[C@H](C)C[C@H](N(C)C)[C@H]2O)[C@](C)(OC)C[C@@H](C)C(=O)[C@H](C)[C@@H](O)[C@]1(C)O |  | <6.25 µg/mL |
| CC(=O)O[C@H]1C[C@H](n2cc(C(F)CCl)c(=O)[nH]c2=O)O[C@@H]1CO | ATCC 25291 | <5 µg/mL |
| O=c1[nH]c(=O)n(COCCO)cc1I | ATCC 25291 | >100 µg/mL |

2 of the rows above, restated:

{"SMILES": "O=C1NC(=NCc2ccccc2)N/C1=C\\c1ccc(Cl)cc1", "result": ">12.5 µg/mL"}
{"SMILES": "O=c1[nH]c(=O)n(COCCO)cc1F", "strain": "ATCC 25291", "result": ">100 µg/mL"}